Measurements reported in PubChem BioAssay AID624099 (ICCB-Longwood, 2012).
The whole screen tested about 21,000 reagents; shown is an unselected part. Over the whole deposit, 497 (2.4%) are marked active. 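Higher z means weaker E2 silencing; only reporter increases were scored, and knock-downs that hurt cell survival may mask genuine repressor factors.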 Unmarked entries are inactive. The numbers tell different reagents against one gene apart.

Screen: 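Host factors E2 relies on to silence an HPV18 LCR reporter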 (primary screen)
Cells: human C33A cervical carcinoma cells (HPV-negative) stably expressing BPV1 E2 and an HPV18 LCR luciferase reporter
Reagent: siRNA pool against human genes, 40 nM
Time to read-out: 72 h
Read-out: 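HPV18 LCR reporter light per well, converted to plate-wise z-scores that exclude control wells, and averaged over triplicate plates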
Reading the numbers: mean z-score and z-score: higher = stronger reporter signal, weaker E2 silencing
Rule for the call: 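Mean z ≥ 2 together with z ≥ 2 in two or more of the three replicates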

The opening 6 entries, to show the layout:
gene | reagent | mean z-score | z-score, replicate A | z-score, replicate B | z-score, replicate C
RBBP8NL (RBBP8 N-terminal like) | 1 | -1.14 | -1.39 | -1.08 | -0.95
C11orf71 (chromosome 11 open reading frame 71) | 1 | 0.46 | 0.4 | 0.51 | 0.45
LOC388917 (retired record) | 1 | 0.21 | 0.34 | 0.18 | 0.11
EMILIN1 (elastin microfibril interfacer 1) | 1 | 1.03 | 1.11 | 0.83 | 1.14
ANXA13 (annexin A13) | 1 | -0.1 | -0.33 | 0.17 | -0.15
EGFLAM (EGF like, fibronectin type III and laminin G domains) | 1 | 1.73 | 1.96 | 1.73 | 1.5

The list itself, from the start:
gene | reagent | mean z-score | z-score, replicate A | z-score, replicate B | z-score, replicate C
RBBP8NL (RBBP8 N-terminal like) | 1 | -1.14 | -1.39 | -1.08 | -0.95
C11orf71 (chromosome 11 open reading frame 71) | 1 | 0.46 | 0.4 | 0.51 | 0.45
LOC388917 (retired record) | 1 | 0.21 | 0.34 | 0.18 | 0.11
EMILIN1 (elastin microfibril interfacer 1) | 1 | 1.03 | 1.11 | 0.83 | 1.14
ANXA13 (annexin A13) | 1 | -0.1 | -0.33 | 0.17 | -0.15
EGFLAM (EGF like, fibronectin type III and laminin G domains) | 1 | 1.73 | 1.96 | 1.73 | 1.5
EBAG9 (estrogen receptor binding site associated antigen 9) | 1 | 1.79 | 2.2 | 1.68 | 1.5
TFAP2D (transcription factor AP-2 delta) | 1 | -0.36 | -0.56 | -0.29 | -0.24
PLXND1 (plexin D1) | 1 | 0.11 | 0.36 | 0.34 | -0.36
NEK2 (NIMA related kinase 2) | 1 | 0.77 | 0.45 | 0.99 | 0.89
U2SURP (U2 snRNP associated SURP domain containing) | 1 | -0.14 | -0.33 | -0.12 | 0.03
TCFL5 (transcription factor like 5) | 1 | 0.61 | 0.68 | 0.76 | 0.38
LOC126435 (retired record) | 1 | 0.25 | 0.04 | 0.31 | 0.39
DOT1L (DOT1 like histone lysine methyltransferase) | 1 | 0.38 | 0.45 | 0.5 | 0.19
GTF2H4 (general transcription factor IIH subunit 4) | 1 | -0.43 | -0.38 | -0.38 | -0.52
C10orf88B (C10orf88B (pseudogene)) | 1 | 0.6 | 0.74 | 0.39 | 0.69
GKAP1 (G kinase anchoring protein 1) | 1 | 0.28 | 0.46 | 0.35 | 0.03
OR1L1 (olfactory receptor family 1 subfamily L member 1) | 1 | 0.3 | 0.61 | -0.22 | 0.51
FAM182B (family with sequence similarity 182 member B) | 1 | 1.89 | 1.94 | 2.23 | 1.51
TSPYL5 (TSPY like 5) | 1 | -0.62 | -0.3 | -0.68 | -0.88
LCMT1 (leucine carboxyl methyltransferase 1) | 1 | 0.08 | 0.16 | 0.18 | -0.1
MIOX (myo-inositol oxygenase) | 1 | -1.99 | -2.22 | -2.03 | -1.72
CILK1 (ciliogenesis associated kinase 1) | 1 | 1.65 | 2.04 | 1.12 | 1.8
CAPRIN1 (cell cycle associated protein 1) | 1 | 1.5 | 1.55 | 1.45 | 1.51
FLJ44076 (retired record) | 1 | -0.45 | -0.62 | 0.11 | -0.84
UPK1A (uroplakin 1A) | 1 | -0.38 | -0.29 | -0.49 | -0.35
HES3 (hes family bHLH transcription factor 3) | 1 | -0.67 | -0.66 | -0.43 | -0.91
PERP (p53 apoptosis effector related to PMP22) | 1 | -0.92 | -0.75 | -0.74 | -1.28
HDGF (heparin binding growth factor) | 1 | -1.8 | -2.01 | -1.73 | -1.66
ZNF497 (zinc finger protein 497) | 1 | -0.56 | -0.67 | -0.19 | -0.8
HELZ2 (helicase with zinc finger 2) | 1 | 1.54 | 1.7 | 1.67 | 1.27
HELZ2 (helicase with zinc finger 2) | 2 | -0.91 | -0.86 | -0.91 | -0.97
FBXO21 (F-box protein 21) | 1 | 0.58 | 0.66 | 0.47 | 0.6
ATP13A4 (ATPase 13A4) | 1 | -1.63 | -1.51 | -1.42 | -1.96
AIP (AHR interacting HSP90 co-chaperone) | 1 | -0.93 | -0.73 | -0.93 | -1.13
GLA (galactosidase alpha) | 1 | 1.25 | 1.57 | 1.02 | 1.15
SLC25A18 | 1 | 1.89 | 1.68 | 1.79 | 2.19
CALU (calumenin) | 1 | 0.08 | 0.14 | -0.09 | 0.2
ZNF224 (zinc finger protein 224) | 1 | -0.26 | -0.34 | -0.19 | -0.27
LOC388171 (retired record) | 1 | 3.53 (active) | 3.86 | 3.48 | 3.26
RHOBTB1 (Rho related BTB domain containing 1) | 1 | 0.06 | -0.08 | -0.03 | 0.3
PLA2G1B (phospholipase A2 group IB) | 1 | 0.21 | 0.23 | 0.13 | 0.25
MAB21L2 (mab-21 like 2) | 1 | -0.86 | -0.68 | -0.91 | -0.99
PDE4A (phosphodiesterase 4A) | 1 | 0.36 | 0.26 | 0.46 | 0.37
GPAT4 (glycerol-3-phosphate acyltransferase 4) | 1 | -0.22 | -0.29 | -0.15 | -0.23
ACKR4 (atypical chemokine receptor 4) | 1 | -1.21 | -1.28 | -1.06 | -1.29
BAG5 (BAG cochaperone 5) | 1 | -0.16 | -0.53 | -0.19 | 0.25
TARS1 (threonyl-tRNA synthetase 1) | 1 | -0.72 | -0.61 | -0.84 | -0.71
ANXA4 (annexin A4) | 1 | -0.94 | -1.25 | -0.75 | -0.83
CHAF1B (chromatin assembly factor 1 subunit B) | 1 | 1.75 | 2.18 | 1.74 | 1.33
FBN2 (fibrillin 2) | 1 | 0.59 | 0.71 | 0.44 | 0.6
VPS26A (VPS26 retromer complex component A) | 1 | -0.49 | -0.46 | -0.51 | -0.51
RNF166 (ring finger protein 166) | 1 | -0.54 | -0.72 | -0.54 | -0.36
NTAN1 (N-terminal asparagine amidase) | 1 | 0.21 | 0.41 | -0.13 | 0.36
GLRX2 (glutaredoxin 2) | 1 | 0.45 | 0.32 | 0.34 | 0.68
NRL (neural retina leucine zipper) | 1 | 0.63 | 0.83 | 0.67 | 0.38
XYLT2 (xylosyltransferase 2) | 1 | 0.36 | 0.4 | 0.62 | 0.06
